In publication PMC3578785, “Improved BM212 MmpL3 Inhibitor Analogue Shows Efficacy in Acute Murine Model of Tuberculosis Infection” (PLoS ONE, 2013):
Several values for one entry are separate records, joined by “and”; a condition that tells them apart may be missing. Identical values can stand only once.

System: HepG2 cells
Settings: HepG2 Tox50 over H37Rv MIC

| SMILES | Tox50/MIC |
| --- | --- |
| Cc1ccc(-c2cc(CN3CCOCC3)c(C)n2-c2ccc(F)cc2)cc1 [Compound 5, 2-Methyl-3-[(morpholin-4-yl)-methyl]-5-[4-(methyl)phenyl]-1-[4-(fluoro)phenyl]-1H-pyrrole] | 66.93 |
| COc1ccc(-c2cc(CN3CCOCC3)c(C)n2-c2ccc(F)cc2)cc1 [Compound 6, 2-Methyl-3-[(morpholin-4-yl)-methyl]-5-[4-(methoxy)phenyl]-1-[4-(fluoro)phenyl]-1H-pyrrole] | >41.66 |
| CSc1ccc(-c2cc(CN3CCOCC3)c(C)n2-c2ccc(F)cc2)cc1 [Compound 7, 2-Methyl-3-[(morpholin-4-yl)-methyl]-5-[4-(methylthio)phenyl]-1-[4-(fluoro)phenyl]-1H-pyrrole] | 54.83 |
| CCc1ccc(-c2cc(CN3CCOCC3)c(C)n2-c2ccc(F)cc2)cc1 [Compound 8, 2-Methyl-3-[(morpholin-4-yl)-methyl]-5-[4-(ethyl)phenyl]-1-[4-(fluoro)phenyl]-1H-pyrrole] | 97.5 |
| Cc1c(CN2CCOCC2)cc(-c2ccc(C(C)C)cc2)n1-c1ccc(F)cc1 [Compound 9, 2-Methyl-3-[(morpholin-4-yl)-methyl]-5-[4-(i-propyl)phenyl]-1-[4-(fluoro)phenyl]-1H-pyrrole] | > 100 and 127.5 |
| Cc1ccc(-c2cc(CN3CCOCC3)c(C)n2-c2ccc(Cl)cc2)cc1 [Compound 10, 2-Methyl-3-[(morpholin-4-yl)-methyl]-5-[4-(methyl)phenyl]-1-[4-(chloro)phenyl]-1H-pyrrole] | 41.66 |
| CCc1ccc(-c2cc(CN3CCOCC3)c(C)n2-c2ccc(Cl)cc2)cc1 [Compound 11, 2-Methyl-3-[(morpholin-4-yl)-methyl]-5-[4-(ethyl)phenyl]-1-[4-(chloro)phenyl]-1H-pyrrole] | 44 |
| CCCc1ccc(-c2cc(CN3CCOCC3)c(C)n2-c2ccc(Cl)cc2)cc1 [Compound 12, 2-Methyl-3-[(morpholin-4-yl)-methyl]-5-[4-(propyl)phenyl]-1-[4-(chloro)phenyl]-1H-pyrrole] | 6.65 |
| Cc1c(CN2CCOCC2)cc(-c2ccc(C(C)C)cc2)n1-c1ccc(Cl)cc1 [Compound 13, 2-Methyl-3-[(morpholin-4-yl)-methyl]-5-[4-(i-propyl)phenyl]-1-[4-(chloro)phenyl]-1H-pyrrole] | 16.66 |
| Cc1ccc(-n2c(-c3ccc(Cl)cc3)cc(CN3CCOCC3)c2C)cc1 [Compound 14, 2-Methyl-3-[(morpholin-4-yl)-methyl]-5-[4-(chloro)phenyl]-1-[4-(methyl)phenyl]-1H-pyrrole] | 20 |
| CCc1ccc(-n2c(-c3ccc(Cl)cc3)cc(CN3CCOCC3)c2C)cc1 [Compound 15, 2-Methyl-3-[(morpholin-4-yl)-methyl]-5-[4-(chloro)phenyl]-1-[4-(ethyl)phenyl]-1H-pyrrole] | 29.66 |
| CCCc1ccc(-n2c(-c3ccc(Cl)cc3)cc(CN3CCOCC3)c2C)cc1 [Compound 16, 2-Methyl-3-[(morpholin-4-yl)-methyl]-5-[4-(chloro)phenyl]-1-[4-(propyl)phenyl]-1H-pyrrole] | 25.66 |
| Cc1c(CN2CCOCC2)cc(-c2ccc(Cl)cc2)n1-c1ccc(C(C)C)cc1 [Compound 17, 2-Methyl-3-[(morpholin-4-yl)-methyl]-5-[4-(chloro)phenyl]-1-[4-(i-propyl)phenyl]-1H-pyrrole] | 16.33 |
| COc1ccc(-n2c(-c3ccc(C)cc3)cc(CN3CCOCC3)c2C)cc1 [Compound 18, 2-Methyl-3-[(morpholin-4-yl)-methyl]-5-[4-(methyl)phenyl]-1-[4-(methoxy)phenyl]-1H-pyrrole] | 5.85 |
| CCc1ccc(-c2cc(CN3CCOCC3)c(C)n2-c2ccc(OC)cc2)cc1 [Compound 19, 2-Methyl-3-[(morpholin-4-yl)-methyl]-5-[4-(ethyl)phenyl]-1-[4-(methoxy)phenyl]-1H-pyrrole] | 19 |
| CCCc1ccc(-c2cc(CN3CCOCC3)c(C)n2-c2ccc(OC)cc2)cc1 [Compound 20, 2-Methyl-3-[(morpholin-4-yl)-methyl]-5-[4-(propyl)phenyl]-1-[4-(methoxy)phenyl]-1H-pyrrole] | 47.66 |
| COc1ccc(-n2c(-c3ccc(C(C)C)cc3)cc(CN3CCOCC3)c2C)cc1 [Compound 21, 2-Methyl-3-[(morpholin-4-yl)-methyl]-5-[4-(i-propyl)phenyl]-1-[4-(methoxy)phenyl]-1H-pyrrole] | 47 |
| COc1ccc(-c2cc(CN3CCOCC3)c(C)n2-c2ccc(C)cc2)cc1 [Compound 22, 2-Methyl-3-[(morpholin-4-yl)-methyl]-5-[4-(methoxy)phenyl]-1-[4-(methyl)phenyl]-1H-pyrrole] | 18.83 |
| CCc1ccc(-n2c(-c3ccc(OC)cc3)cc(CN3CCOCC3)c2C)cc1 [Compound 23, 2-Methyl-3-[(morpholin-4-yl)-methyl]-5-[4-(methoxy)phenyl]-1-[4-(ethyl)phenyl]-1H-pyrrole] | 49 |
| CCCc1ccc(-n2c(-c3ccc(OC)cc3)cc(CN3CCOCC3)c2C)cc1 [Compound 24] | 13.12 |
| COc1ccc(-c2cc(CN3CCOCC3)c(C)n2-c2ccc(C(C)C)cc2)cc1 [Compound 25] | 79.5 |
